## Single amino acid changes in Zika NS2B-NS3 and viral growth

Protein: NS2B and the protease part of NS3 of Zika virus strain MR766. Positions count along the chain below; NS2B spans 2-131 and NS3 starts at 132.
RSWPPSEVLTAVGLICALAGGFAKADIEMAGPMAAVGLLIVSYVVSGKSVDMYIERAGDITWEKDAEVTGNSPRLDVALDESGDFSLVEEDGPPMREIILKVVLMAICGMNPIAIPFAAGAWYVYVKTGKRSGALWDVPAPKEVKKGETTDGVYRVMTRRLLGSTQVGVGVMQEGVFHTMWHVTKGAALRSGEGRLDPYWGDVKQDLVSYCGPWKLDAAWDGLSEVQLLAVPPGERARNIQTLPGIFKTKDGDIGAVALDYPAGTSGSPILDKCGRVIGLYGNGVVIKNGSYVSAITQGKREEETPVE

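Pools of virus carrying all single amino acid changes were selected for growth in Huh-7.5 cells. Sequencing of three replicate libraries (two for positions 207-308) was averaged into one effect per change. The aim was to find sites where inhibitor-binding pockets cannot change.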

Values are log2 effects on growth: 0 is wild type, lower means poorer growth. Each entry names the wild-type residue, its position and the residue put in its place. Stop codons (*) centre on -7 and mark the level of dead virus. Position 1 still belongs to NS2A. In the paper, -1 or higher counts as tolerated. The region was split into three libraries (1-103, 104-206, 207-308). Values above 0 are not proof of better growth: six high scorers were tested one by one, five grew less well than wild type and one about as well.

- V144C = -1.92
- A118Q = -5.69
- G192D = -4.49
- V12C = -0.55
- A188T = -4.64
- G264K = -5.47
- T297P = -5.39
- L259Q = -5.40
- A218R = -4.86
- S224L = -7.16
- G264N = -4.20
- W214V = -8.23
- Y281S = -6.86
- D137I = -6.23
- K142L = -3.39
- M110D = -3.39
- K130Y = -6.20
- A25M = 1.07
- E7I = -6.23
- V36T = -0.72
- F85M = -5.30
- R238C = 1.55
- P94C = -1.29
- N289W = -4.58
- P232R = -5.94
- L271C = -5.08
- I278P = -5.50
- K204Q = -6.87
- R301I = -2.71
- L18E = -6.54
- I254Y = -6.42
- G133E = -5.38
- G168Y = -4.96
- R159D = -4.50
- L87T = -7.36
- K300N = -6.59
- G109Q = -4.45
- E174M = -5.12
- A219N = 1.02
- L189F = -4.10
- R155E = -5.45
- W3M = -4.44
- F22M = 1.42
- D253N = -2.18
- G21F = -1.77
- P141V = -5.50
- G252C = -1.28
- Y292C = -3.59
- L243Q = -0.68
- G275E = -0.81
- G299* = -7.90
- V44Q = -5.65
- A121P = -7.43
- A17N = -5.65

The opening 5 entries, copied out:

V144C gave -1.92.
A118Q gave -5.69.
G192D gave -4.49.
V12C gave -0.55.
A188T gave -4.64.

The measurements come from Ni et al. 2025 (doi:10.1038/s41467-025-63602-z).